A mixed list of measured activities; the numbers were collected in NIAID ChemDB.

Shared fields: enzyme or target tests; species: HIV-1; protein: Reverse transcriptase

Rows are shuffled and stem from different studies. An empty or dashed field is not shown. ICn: concentration for n% inhibition. Fold resistance: result on the changed form divided by that on wild type. Two numbers with a dash give a range or band.

SMILES	method	measure	mutations	strain	value
CCN1c2ncc(CCOc3ccc(-c4cc(C)ccn4)cc3C)cc2C(=O)N(C)c2cccnc21	nucleotide incorporation / radiometric	fold resistance	RT-K103N Y181C	IIIB	1
CCN1c2ncc(CCOc3ccc(CC(C)C(=O)O)c4ccccc34)cc2C(=O)N(C)c2ccc(Cl)nc21	nucleotide incorporation / radiometric	fold resistance	RT-V106A		>10
CC(C)(N)C#Cc1ccc(NC(=O)CSc2nnnn2-c2cc(C(C)(C)C)cc(Br)c2Cl)c(Cl)c1	PicoGreen / fluorescence	IC50	RT-K103 Y181C		<1 µM
FC(F)(F)c1ccc2c(c1)CN(c1nn3c(C4CC4)nnc3c3ccccc13)CC2	RT activity / fluorescence	IC90		IIIB	5.02 µM
CC(C)(C)c1ccc(-n2nnnc2SCC(=O)Nc2ccc(C(=O)NC(CO)C(=O)O)cc2Cl)c(Cl)c1	PicoGreen / fluorescence	IC50	RT-K103 Y181C		<1 µM
CCc1cc(NCc2nc3c(C)ccc(C)c3o2)c(=O)[nH]c1C	nucleotide incorporation	fold resistance	RT-Y181S		90.8
Cc1ccc(-n2nnnc2SCC(=O)Nc2ccc(-c3ccc(S(N)(=O)=O)cc3)cc2[N+](=O)[O-])c(Cl)c1	PicoGreen / fluorescence	IC50	RT-K103 Y181C		<1 µM
COc1cccc(-c2nnc3c4ccccc4c(N4CCc5ccccc5C4)nn23)c1	RT activity / fluorescence	IC90		IIIB	>100 µM
CCN1c2ncc(CCOc3ccc4cc(CC(=O)NN)ccc4c3)cc2C(=O)N(C)c2cccnc21	nucleotide incorporation / radiometric	fold resistance	RT-K103N Y181C		1–10
c1ccc2c(c1)CN(c1nn3c(C4CC4)nnc3c3ccccc13)C2	RT activity / fluorescence	IC90		KER2008	>100 µM
Cc1cc(-n2nnnc2SCC(=O)Nc2ccc(C#CC(C)(C)O)cc2Cl)c(Cl)c(C(F)(F)F)c1	PicoGreen / fluorescence	IC50		WT	<1 µM
CCN1c2ncc(CCOc3ccc(CCC(=O)O)c4c3CCCC4)cc2C(=O)N(C)c2cccnc21	nucleotide incorporation / radiometric	fold resistance	RT-K103N Y181C		1–10
COc1ccc(CC(=O)Nc2ccc(NC(=O)CSc3nnnn3-c3ccc(C(C)(C)C)cc3Cl)c(Cl)c2)cc1	PicoGreen / fluorescence	IC50		WT	<1 µM
CCN1c2ncc(CCOc3ccc(C(=O)O)c4ccccc34)cc2C(=O)Nc2c(C)cc(F)nc21	nucleotide incorporation / radiometric	fold resistance	RT-K103N Y181C		1–10
CC(C)(C)c1ccc(-n2nnnc2SCC(=O)Nc2ccc(OCC(=O)Nc3ccc(O)cc3)cc2Cl)c(Cl)c1	PicoGreen / fluorescence	IC50		WT	<1 µM
O=[N+]([O-])c1ccc2c(c1)CN(c1nn3c(C(F)F)nnc3c3ccccc13)CC2	RT activity / fluorescence	IC90		KER2008	14.5 µM
CCN1c2ncc(CCOc3ccc(-c4nccn4C)cc3C)cc2C(=O)N(C)c2cccnc21	nucleotide incorporation / radiometric	fold resistance	RT-K103N Y181C	IIIB	>1
FC(F)(F)c1cccc2c1CCN(c1nn3c(C4CC4)nnc3c3ccccc13)C2	RT activity / fluorescence	IC50		KER2008	22 µM
CCN1c2ncc(CCOc3ccc(C(=O)Nc4ccc[n+]([O-])c4)cc3C)cc2C(=O)Nc2c(C)ccnc21	nucleotide incorporation / radiometric	fold resistance	RT-K103N Y181C	IIIB	1
CCN1c2ncc(CCOc3ccc(CC(=O)O)c4ccccc34)cc2C(=O)Nc2c(C)cc(F)nc21	nucleotide incorporation / radiometric	fold resistance	RT-K103N Y181C		1–10
O=C(O)Cc1ccc(-c2ccc(NC(=O)CSc3nnnn3-c3cc4c(cc3Cl)CCC4)c(Cl)c2)cc1	PicoGreen / fluorescence	IC50		WT	<1 µM

Repeating the final 2 entries:

CCN1c2ncc(CCOc3ccc(CC(=O)O)c4ccccc34)cc2C(=O)Nc2c(C)cc(F)nc21 ; method: nucleotide incorporation / radiometric ; measure: fold resistance ; mutations: RT-K103N Y181C ; value: 1–10
O=C(O)Cc1ccc(-c2ccc(NC(=O)CSc3nnnn3-c3cc4c(cc3Cl)CCC4)c(Cl)c2)cc1 ; method: PicoGreen / fluorescence ; measure: IC50 ; strain: WT ; value: <1 µM